From PMC5720831

Biological target: T1, DciA(Mtb) W113A W133A (UniProt P9WFL1)
T1 sequence (looked up): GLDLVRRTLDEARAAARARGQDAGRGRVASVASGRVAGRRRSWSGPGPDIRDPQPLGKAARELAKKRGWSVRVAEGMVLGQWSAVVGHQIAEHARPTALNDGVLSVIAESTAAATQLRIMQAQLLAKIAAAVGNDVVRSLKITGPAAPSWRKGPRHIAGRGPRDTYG
Assay: EMSA
Conditions: 50 mM Tris-HCl pH 7, 150 mM NaCl, 1 mM EDTA, 1 mM DTT, 10 ug BSA, 12 ul, 20 min at room temperature, recombinant protein, residues 21-187, label: 32P 5' end (T4 PNK), probe letters rebuilt from the primers and the genome

Sequence: GCATCCGTCAGCGCTCCAAGCGCTAGCACGGCGTGTTCTTCCGACAACGTTCTTAAAAAAACTTCTCTCTCCCAGGTCACACCAGTCACAGAGATTGGCTGTGAGTGTCGCTGTGCACAAACCGCGCACAGACTCATACAGTCCCGGCGGTTCCGTTCACAACCCACGCCTCATCCCCACCGACCCAACACACACCCCACAGTCATCGCCACCGTCATCCACAACTCCGACCGACGTCGACCTGCACCAAGACCAGACTGTCCCCAAACTGCACACCCTCTAATACTGTTACCGAGATTTCTTCGTCGTTTGTTCTTGGAAAGACAGCGCTGGGGATCGTTCGCTGGATACCACCCGCATAACTGGCTCGTCGCGGTGGGTCAGAGGTCAATGATGAACTTTCAAGTTGACGTGAGAAGCTCTACGGTTGTTGTTCGACTGCTGTTGCGGCCGTCGTGGCGGGTCACGCGTCATGGGCATTCGTCGTTGGCAGTCCCCACGCTAGCGGGGCGCTAGCCACGGGATCGAACTCATCGTGAGGTGAAAGGGCGCA (double strand) [oriC(Mtb) 553 bp]
- binding result: binds

Tags and fusion partners may be left off the protein sequences shown.
